Reference: patent US20250163122A1, “COMPOSITIONS AND METHODS FOR TREATING AIRWAY MUCUS DYSFUNCTION” (BOARD OF REGENTS, THE UNIVERSITY OF TEXAS SYSTEM, priority 2022, published 2025)

Legend:
[1] = system: CALU-3 cells; assay: Uptake of PEN-SP9-Cy3 in CALU-3 cells with endocytosis inhibitors; type: cell-based
[2] = system: mouse airway epithelium; assay: Peptide uptake in mouse airway epithelium after aerosol delivery; type: in vivo; details: 30 min after aerosolized 20 μM, left axial bronchus

## H2N-RQIKIWFQNRRMKWKKEE(S5)KDA(S5)IR(S5)LVM(S5)DEQ-(C/Cy3Mal)-amide (IRQIKIWFQNRRMKWKKEEAKDAAIRALVMADEQ; S5 staples, penetratin, Cys-Cy3 maleimide, C-terminal amide; MOD_RES 20 S-pentenylalanine; MOD_RES 24 S-pentenylalanine; MOD_RES 27 S-pentenylalanine; MOD_RES 31 S-pentenylalanine; CROSSLNK 20..24 Macrocyclic crosslink is formed by substituting the non-natural amino acids S-pentenylalanine; CROSSLNK 27..31 Macrocyclic crosslink is formed by substituting the non-natural amino acids S-pentenylalanine) [PEN-SP9-Cy3]
[1]; 100 μM PEN-SP9-Cy3, 80 μM dynasore
  cytoplasmic delivery (Cy3 mean fluorescence intensity) with dynasore: inhibited
[1]; 100 μM PEN-SP9-Cy3, 100 μM chloroquine
  cytoplasmic delivery (Cy3 mean fluorescence intensity) with chloroquine: inhibited
[2]
  uptake by secretory cells (CCSP staining): not take up
